Reference: patent publication US10011599B2 (priority 2013, dated 2018)

Tested on: A375 cells
Experiment: cells
Settings: Homo sapiens, A-375, 72 h, read-out: A375 XTT IC50 uM

Row | SMILES | IC50 [µM]
1 | Cc1nc2cnc3cc(F)c(-c4ccc(Oc5ncccn5)cc4Cl)cc3c2n1C1CCN(C(=O)CF)CC1 [Example 96, 1-(4-(8-(2-chloro-4-(pyrimidin-2-yloxy)phenyl)-7-fluoro-2-methyl-1H-imidazo[4,5-c]quinolin-1-yl)piperidin-1-yl)-2-fluoroethanone] | 0.394
2 | Cc1nc2cnc3cc(F)c(-c4ccc(Oc5ncccn5)cc4Cl)cc3c2n1[C@H]1CCN(C(=O)CF)C[C@@H]1F [Example 97, 1-((3S,4S)-4-(8-(2-chloro-4-(pyrimidin-2-yloxy)phenyl)-7-fluoro-2-methyl-1H-imidazo[4,5-c]quinolin-1-yl)-3-fluoropiperidin-1-yl)-2-fluoroethanone] | 0.09
